Values from PubChem BioAssay AID624099 (ICCB-Longwood, 2012)

- Screen: 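Human genes that papillomavirus E2 requires to repress the HPV18 LCR promoter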 (primary screen)
- Cell system: human C33A cervical carcinoma cells (HPV-negative) stably expressing BPV1 E2 and an HPV18 LCR luciferase reporter
- Knock-down reagent: siRNA pool against human genes, 40 nM
- Duration: 72 h
- Measurement: 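Per-well luciferase luminescence, z-scored on each plate against the plate mean and SD with control wells left out, then averaged across three replicate plates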
- Direction: mean z-score and z-score: higher = stronger reporter signal, weaker E2 silencing
- Active means: 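Mean z ≥ 2 together with z ≥ 2 in two or more of the three replicates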
Shown is a random part of about 21,000 deposited reagents. Over the whole deposit, 497 (2.4%) were called active. 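Higher z means weaker E2 silencing; only reporter increases were scored, and knock-downs that hurt cell survival may mask genuine repressor factors.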 Reagents against one gene are numbered here. Reagent sequences are not shown.

gene	reagent	mean z-score	z-score, replicate A	z-score, replicate B	z-score, replicate C	activity call
KHNYN	1	0.25	0.12	0.44	0.19	inactive
ACAA2	1	-0.32	-0.2	-0.31	-0.46	inactive
HIF1AN	1	0.7	0.55	0.8	0.73	inactive
NRDC	1	-1.25	-1.47	-1.04	-1.25	inactive
TEX28	1	0.48	0.28	0.86	0.31	inactive
LTA4H	1	-0.86	-0.9	-0.84	-0.82	inactive
PLPPR3	1	1.07	1.64	0.9	0.67	inactive
LINC00316	1	0.18	0.16	0.04	0.33	inactive
GOLGA6L9	1	1.12	1.03	1.03	1.31	inactive
CBARP	1	-0.91	-1.18	-0.81	-0.76	inactive
LINC01443	1	1.32	1.13	1.24	1.58	inactive
NME7	1	0.78	0.55	0.58	1.2	inactive
LRP4	1	0.05	-0.01	0.16	0.02	inactive
PHF23	1	-0.29	-0.29	-0.32	-0.27	inactive
SFTA2	1	0.46	0.54	0.3	0.55	inactive
ANK3	1	0.86	0.95	0.8	0.81	inactive
IQCC	1	1.09	1.34	0.46	1.46	inactive
SLC25A20	1	-0.6	-0.61	-0.53	-0.65	inactive
RBMX	1	0.28	0.29	0.48	0.06	inactive
ARMC8	1	-0.6	-0.73	-0.79	-0.29	inactive
ERI3	1	0.34	-0.05	0.34	0.74	inactive
FRG2	1	0.6	0.79	0.27	0.73	inactive
H2AB3	1	2.45	2.83	1.96	2.57	active
TPP1	1	0.77	0.43	0.92	0.95	inactive
PTMAP5	1	-2	-1.82	-2.29	-1.89	inactive
WNT5A	1	1.05	1	1.31	0.83	inactive
KIF20A	1	0.17	0.17	0.3	0.02	inactive
ACTRT2	1	0.36	0.91	0.14	0.04	inactive
OR4B1	1	0.33	0.7	-0.1	0.39	inactive
VPS13A	1	0.46	0.48	0.39	0.51	inactive
RSPO3	1	-0.41	-0.29	-0.58	-0.37	inactive
USP17L6P	1	-0.24	-0.11	-0.3	-0.31	inactive
RRN3P1	1	-0.6	-0.38	-0.8	-0.63	inactive
CCN6	1	-0.94	-0.77	-0.93	-1.13	inactive
ADAMTS18	1	0.38	0.14	0.45	0.56	inactive
GBP3	1	-1.51	-1.47	-1.72	-1.33	inactive
HEXA	1	-1.12	-1.44	-1.26	-0.66	inactive
MSX2	1	-0.14	-0.38	0.07	-0.12	inactive
WNT1	1	-1.34	-1.37	-1.24	-1.42	inactive
OR2T5	1	-1.64	-1.51	-1.62	-1.8	inactive
TMEM131L	1	0.05	0.55	-0.05	-0.33	inactive
PCDHGB2	1	-0.11	-0.05	-0.18	-0.11	inactive
PLCH2	1	-0.51	-0.69	-0.57	-0.28	inactive
OAS1	1	0.5	0.37	0.68	0.46	inactive
MUC17	1	-0.6	-0.63	-0.66	-0.52	inactive
MUC17	2	0.44	0.61	0.18	0.54	inactive
BTF3	1	-0.63	-0.48	-0.72	-0.7	inactive
RNF223	1	0.16	0.2	0.69	-0.42	inactive
TOMM34	1	-0.22	-0.08	-0.54	-0.05	inactive
SP1	1	0.71	0.99	0.98	0.17	inactive
TACSTD2	1	-0.25	-0.42	0.09	-0.43	inactive
HSPA1A	1	0.97	0.73	0.97	1.2	inactive
SLC30A5	1	1.67	2.53	1.38	1.11	inactive
DEDD2	1	-0.38	-0.13	-0.53	-0.48	inactive
GGA3	1	0.71	0.48	1.38	0.29	inactive
SMIM9	1	0.72	1.01	0.44	0.71	inactive
ZNF572	1	-0.03	0.04	-0.38	0.26	inactive
